Assay results reported in patent US7767704B2, “Antiviral 4-aminocarbonylamino-substituted imidazole compounds” (AiCuris GmbH & Co. KG, priority 2004, dated 2010).

System: HCMV
Assay: Anti-HCMV (anti-human cytomegalovirus) cytopathogenicity test
Type: cell-based
Settings: selectivity index = CC50 (NHDF)/EC50 (HCMV)
Description: Anti-HCMV (Anti-human Cytomegalovirus) Cytopathogenicity Tests
The test compounds are employed as 50 millimolar (mM) solutions in dimethyl sulphoxide (DMSO). Ganciclovir, foscarnet and cidofovir are used as reference compounds. After addition of in each case 2 μl of the 50, 5, 0.5 and 0.05 mM DMSO stock solutions to 98 μl portions of cell culture medium in row 2 A-H for duplicate determinations, 1:2 dilutions are carried out with 50 μl portions of medium up to row 11 of the 96-well plate. The wells in rows 1 and 12 each contain 50 μl of medium. 150 μl of a suspension of 1×10^4 cells (human prepuce fibroblasts [NHDF]) are pipetted into each of the wells (row 1=cell control) and, in rows 2-12, a mixture of HCMV-infected and uninfected NHDF cells (M.O.I.=0.001-0.002), i.e. 1-2 infected cells per 1000 uninfected cells. Row 12 (without substance) serves as virus control. The final test concentrations are 250-0.0005 μM. The plates are incubated at 37° C./5% CO2 for 6 days, i.e. until all the cells are infected in the virus controls (100% cytopathogenic effect [CPE]). The wells are then fixed and stained by adding a mixture of formalin and Giemsa's dye (30 minutes), washed with double-distilled water and dried in a drying oven at 50° C. The plates are then assessed visually using an overhead microscope (plaque multiplier from Technomara).
The following data can be acquired from the test plates: • CC50 (NHDF)=substance concentration in μM at which no visible cytostatic effects on the cells are evident by comparison with the untreated cell control; • EC50 (HCMV)=substance concentration in […] which inhibits the CPE (cytopathic effect) by 50% compared with the untreated virus control; • SI (selectivity index)=CC50 (NHDF)/EC50 (HCMV).

Row | Structure (SMILES) | SI HCMV
1 | COc1ccc(C(C)NC(=O)c2nc(NC(=O)Nc3ccc(C)c(F)c3)cn2C)cn1 (centres unmarked) [Example 2, 4-({[(3-Fluoro-4-methylphenyl)amino]carbonyl}amino)-N-[1-(6-methoxypyridin-3-yl)ethyl]-1-methyl-1H-imidazole-2-carboxamide] | 188 000 ^
2 | Cc1cc(Cl)ccc1NC(=O)Nc1cn(CC2CC2)c(C(=O)NCCCN2CCOCC2)n1 [Example 3, 4-({[(4-Chloro-2-methylphenyl)amino]carbonyl}amino)-1-(cyclopropylmethyl)-N-(3-morpholin-4-ylpropyl)-1H-imidazole-2-carboxamide] | 8333
3 | Cc1cc(Cl)ccc1NC(=O)Nc1cn(CC2CC2)c(C(=O)NCCCn2cccn2)n1 [Example 11] | 25 000^
4 | COCCOCCCNC(=O)c1nc(NC(=O)Nc2ccc(Cl)cc2C)cn1CC=C(C)C [Example 25] | 6250
5 | COc1ccc(CNC(=O)c2nc(NC(=O)Nc3ccc(OC(F)(F)F)cc3)cn2CC2CC2)cc1 [Example 32] | 3130
6 | O=C(Nc1ccc(OC(F)(F)F)cc1)Nc1cn(Cc2ccc(C(F)(F)F)cc2)c(C(=O)NCCO)n1 [Example 124, N-(2-Hydroxyethyl)-4-[({[4-(trifluoromethoxy)phenyl]amino}carbonyl)amino]-1-[4-(trifluoromethyl)benzyl]-1H-imidazole-2-carboxamide] | 6714
7 | O=C(Nc1ccc(OC(F)(F)F)cc1)Nc1cn(Cc2ccc(C(F)(F)F)cc2)c(C(=O)NCCOC(=O)CN2CCOCC2)n1 [Example 139] | 1679
8 | Cn1cc(NC(=O)Nc2ccc(OC(F)(F)F)cc2)nc1C(=O)NCCCC(F)(F)F [Example 152, 1-Methyl-N-(4,4,4-trifluorobutyl)-4-[({[4-(trifluoromethoxy)phenyl]amino}carbonyl)amino]-1H-imidazole-2-carboxamide] | 16 316^
